Assays:
Assay type in all cases: cell-based, Dengue virus
DENV-3 strain H87 = experiment: Tetravalent RT-qPCR assay Protocol A, serotype 3; conditions: serotype 3 H87
Protocol: (§1) The antiviral activity of the compounds of the invention was tested against DENV-1 strain TC974#666 (NCPV), DENV-2 strain 16681, DENV-3 strain H87 (NCPV) and DENV-4 strains H241 (NCPV) and EDEN (SG/06K2270DK1/2005; GenBank accession number QG398256) in a RT-qPCR assay. Therefore, Vero cells were infected with either DENV-1, or -2, or -3, or -4 in the presence or absence of test compounds. At day 3 post-infection, the cells were lysed and cell lysates were used to prepare cDNA of both a viral target (the 3′UTR of DENV; table 2) and a cellular reference gene (β-actin, table 2). Subsequently, a duplex real time PCR was performed on a Lightcycler480 instrument. The generated Cp value is inversely proportional to the amount of RNA expression of these targets. Inhibition of DENV replication by a test compound result in a shift of Cp's for the 3′UTR gene. On the other hand, if a test compound is toxic to the cells, a similar effect on β-actin expression will be observed. The comparative ΔΔCp method is used to calculate EC50, which is based on the relative gene expression of the target gene (3′UTR) normalized with the cellular housekeeping gene (β-actin). In addition, CC50 values were determined based on the Cp values acquired for the housekeeping gene β-actin.
(§2) The culture medium consisted of minimal essential medium supplemented with 2% of heat-inactivated fetal calf serum, 0.04% gentamycin (50 mg/mL) and 2 mM of L-glutamine. Vero cells, obtained from ECACC, were suspended in culture medium and 75 μL/well was added in 96-well plates (10000 cells/well), which already contain the antiviral compounds. Typically, these plates contain a 4-fold serial dilution of 9 dilution steps of the test compound at 200 times the final concentration in 100% DMSO (500 nL; final concentration range: 25 μM-0.00038 μM). In addition, each plate contains wells which are assigned as virus controls (containing cells and virus in the absence of compound) and cell controls (containing cells in the absence of virus and compound). Once the cells were added in the plates, the plates were incubated in a fully humidified incubator (37° C., 5% CO2) until the next day. Then, DENV-1 strain TC974#666, DENV-2 strain 16681, DENV-3 strain H87 or DENV-4 strains H241 or EDEN were added. […] In parallel, 25 μL of culture medium was added to the cell controls. Next, the plates were incubated for 3 days in a fully humidified incubator (37° C., 5% CO2). After 3 days, the supernatant was removed from the wells and the cells were washed twice with ice-cold PBS (˜100 μL). The cell pellets within the 96-well plates were stored at −80° C. for at least 1 day. Next, RNA was extracted using the Cells-to-CT™ lysis kit, according to the manufacture's guideline (Applied Biosystems). The cell lysates can be stored at −80° C. or immediately used in the reverse transcription step.
(§3) In preparation of the reverse transcription step, mix A (table 3A) was prepared and 7.57 μL/well was dispensed in a 96-well plate. After addition of 5 μL of the cell lysates, a five minute denaturation step at 75° C. was performed (table 3B). Afterwards, 7.43 μL of mix B was added (table 3C) and the reverse transcription step was initiated (table 3D) to generate cDNA.
(§4) Finally, a RT-qPCR mix was prepared, mix C (table 4A), dispensed in 96-well LightCycler qPCR plates to which 3 μL of cDNA was added and the qPCR was performed according to the conditions in table 4B on a LightCycler 480.
(§5) Using the LightCycler software and an in-house LIMS system, dose response curves for each compound were calculated and the half maximal effective concentration (EC50) and the half maximal cytotoxic concentration (CC50) were determined (Tables 6-9).

DENV-1 strain TC974#666 = experiment: Tetravalent RT-qPCR assay Protocol A, serotype 1; conditions: serotype 1 TC974#666, ratio CC50 / EC50
Protocol: as §1, §2, §3, §4, §5

[1] = tested on: DENV-2 16681 strain labeled with eGFP; experiment: DENV-2 antiviral assay (eGFP fluorescence, Vero cells); conditions: SI=CC50/EC50, DENV-2 antiviral assay
Protocol: The antiviral activity of all the compounds of the invention was tested against DENV-2 16681 strain which was labeled with enhanced green fluorescent protein (eGPF). The culture medium consists of minimal essential medium supplemented with 2% of heat-inactivated fetal calf serum, 0.04% gentamycin (50 mg/mL) and 2 mM of L-glutamine. Vero cells, obtained from ECACC, were suspended in culture medium and 25 μL was added to 384-well plates (2500 cells/well), which already contain the antiviral compounds. Typically, these plates contain a 4-fold serial dilution of 9 dilution steps of the test compound at 200 times the final concentration in 100% DMSO (200 nL). In addition, each compound concentration is tested in quadruplicate (final concentration range: 25 μM-0.00038 μM). Finally, each plate contains wells which are assigned as virus controls (containing cells and virus in the absence of compound), cell controls (containing cells in the absence of virus and compound) and medium controls (containing medium in the absence of cells, virus and compounds). To the wells assigned as medium control, 25 μL of culture medium was added instead of Vero cells. Once the cells were added to the plates, the plates were incubated for 30 minutes at room temperature to allow the cells to distribute evenly within the wells. Next, the plates were incubated in a fully humidified incubator (37° C., 5% CO2) until the next day. Then, DENV-2 strain 16681, labeled with eGFP, was added at a multiplicity of infection (MOI) of 0.5. Therefore, 15 μL of virus suspension was added to all the wells containing test compound and to the wells assigned as virus control. In parallel, 15 μL of culture medium was added to the medium and cell controls. Next, the plates were incubated for 3 days in a fully humidified incubator (37° C., 5% CO2). At the day of the read out, the eGFP fluorescence was measured using an automated fluorescence microscope at 488 nm (blue laser). Using an in-house LIMS system, inhibition dose response curves for each compound were calculated and the half maximal effective concentration (EC50) was determined. Therefore, the percent inhibition (I) for every test concentration is calculated using the following formula: I=100*(ST−SCC)/(SVC−SCC); ST, SCC and SVC are the amount of eGFP signal in the test compound, cell control and virus control wells, respectively. The EC50 represents the concentration of a compound at which the virus replication is inhibited with 50%, as measured by a 50% reduction of the eGFP fluorescent intensity compared to the virus control. The EC50 is calculated using linear interpolation (Table 1).

DENV-4 strain H241 = experiment: Tetravalent RT-qPCR assay Protocol A, serotype 4 H241
Protocol: as §1, §2, §3, §4, §5

| Structure (SMILES) | SI (DENV-3 strain H87) | SI (DENV-1 strain TC974#666) | SI [1] | SI (DENV-4 strain H241) |
| --- | --- | --- | --- | --- |
| COc1cc(NC(C(=O)c2c[nH]c3cc(F)ccc23)c2ccc(Cl)cc2OC)cc(OCCO)c1 (single isomer, unassigned) [Compound 1A, 2-(4-chloro-2-methoxyphenyl)-1-(6-fluoro-1H-indol-3-yl)-2-((3-(2-hydroxyethoxy)-5-methoxyphenyl)amino)ethanone] | 28 | 530 | 5395 | 13 |
| COc1cc(NC(C(=O)c2c[nH]c3c(C)c(F)ccc23)c2ccc(Cl)cc2OC)cc(OCCO)c1 (single isomer, unassigned) [Compound 2A, 2-(4-chloro-2-methoxyphenyl)-1-(6-fluoro-7-methyl-1H-indol-3-yl)-2-((3-(2-hydroxyethoxy)-5-methoxyphenyl)amino)ethanone] | 76 | 628 | 5166 | 7 |
| COc1cc(NC(C(=O)c2c[nH]c3c(C)c(Cl)ccc23)c2ccc(Cl)cc2OC)cc(OCCO)c1 (single isomer, unassigned) [Compound 3A, 2-(4-chloro-2-methoxyphenyl)-1-(6-chloro-7-methyl-1H-indol-3-yl)-2-((3-(2-hydroxyethoxy)-5-methoxyphenyl)amino)ethanone] | 104 | 721 | 20070 | 17 |
| COc1cc(NC(C(=O)c2c[nH]c3cc(Cl)ccc23)c2ccc(Cl)cc2OC)cc(OCCO)c1 (single isomer, unassigned) [Compound 4A, 1-(6-chloro-1H-indol-3-yl)-2-(4-chloro-2-methoxyphenyl)-2-((3-(2-hydroxyethoxy)-5-methoxyphenyl)amino)ethanone] | 52 | 447 | 6965 | 10 |
| COc1cc(NC(C(=O)c2c[nH]c3cc(OC)ccc23)c2ccc(Cl)cc2OC)cc(OCCO)c1 (single isomer, unassigned) [Compound 5A, 2-(4-chloro-2-methoxyphenyl)-2-((3-(2-hydroxyethoxy)-5-methoxyphenyl)amino)-1-(6-methoxy-1H-indol-3-yl)ethanone] | 42 | 392 | 7057 | 13 |
| COc1cc(NC(C(=O)c2c[nH]c3cc(OC)c(C)cc23)c2ccc(Cl)cc2OC)cc(OCCO)c1 (single isomer, unassigned) [Compound 6A, 2-(4-chloro-2-methoxyphenyl)-2-((3-(2-hydroxyethoxy)-5-methoxyphenyl)amino)-1-(6-methoxy-5-methyl-1H-indol-3-yl)ethanone] | 106 | 1348 | 6520 | 25 |
| COc1cc(NC(C(=O)c2c[nH]c3cc(OC)c(F)cc23)c2ccc(Cl)cc2OC)cc(OCCO)c1 (single isomer, unassigned) [Compound 7A, 2-(4-chloro-2-methoxyphenyl)-1-(5-fluoro-6-methoxy-1H-indol-3-yl)-2-((3-(2-hydroxyethoxy)-5-methoxyphenyl)amino)ethanone] | 66 | 282 | 5569 | 12 |
| COc1cc(NC(C(=O)c2c[nH]c3c(C)cc(F)cc23)c2ccc(Cl)cc2OC)cc(OCCO)c1 (single isomer, unassigned) [Compound 8A, 2-(4-chloro-2-methoxyphenyl)-1-(5-fluoro-7-methyl-1H-indol-3-yl)-2-((3-(2-hydroxyethoxy)-5-methoxyphenyl)amino)ethanone] | 47 | 368 | 3457 | 11 |
| COc1cc(NC(C(=O)c2c[nH]c3cc(F)c(F)cc23)c2ccc(Cl)cc2OC)cc(OCCO)c1 (single isomer, unassigned) [Compound 9A, 2-(4-chloro-2-methoxyphenyl)-1-(5,6-difluoro-1H-indol-3-yl)-2-((3-(2-hydroxyethoxy)-5-methoxyphenyl)amino)ethanone] | – | 934 | – | – |
| COc1cc(NC(C(=O)c2c[nH]c3c(F)cc(C)cc23)c2ccc(Cl)cc2OC)cc(OCCO)c1 (single isomer, unassigned) [Compound 10A, 2-(4-chloro-2-methoxyphenyl)-1-(7-fluoro-5-methyl-1H-indol-3-yl)-2-((3-(2-hydroxyethoxy)-5-methoxyphenyl)amino)ethanone] | 47 | 290 | 1416 | 8 |
| COc1cc(NC(C(=O)c2c[nH]c3c(F)c(F)ccc23)c2ccc(Cl)cc2OC)cc(OCCO)c1 (single isomer, unassigned) [Compound 11B, 2-(4-chloro-2-methoxyphenyl)-1-(6,7-difluoro-1H-indol-3-yl)-2-((3-(2-hydroxyethoxy)-5-methoxyphenyl)amino)ethanone] | 48 | 202 | 3526 | 7 |

Reference: patent publication US9944598B2, “Mono- or di-substituted indole derivatives as dengue viral replication inhibitors” (priority 2014, dated 2018)
